# Data source: PubChem BioAssay AID504761 (Drosophila RNAi Screening Center, 2011)
# Screen: 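Insect host genes that dengue virus relies on to spread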 (primary screen)
# System: D.Mel-2 cells from Drosophila
# Reagent: long dsRNA against Drosophila genes
# Challenge: infection with dengue virus type 2; dose and infection time not stated
# Detection: 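Cells stained for dengue envelope protein and imaged; percent of infected cells per well on duplicate plates, ranked by infection, with stained nuclei counted for cell number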
# Reading the numbers: infection score: higher = more virus-infected cells; cell count: higher = more cells in the well
# Active means: 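Low infection ranks in the two replicates (chance level up to 0.065) followed by a retest with a 1.5-fold or larger significant decrease, p below 0.05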
# Calls: active = confirmed: knock-down lowers infection; inactive = not picked or not confirmed
# The screen tested about 22,000 reagents; shown is a random part of those that have a named target and a result. Of all reagents, 116 (0.52%) got an active call. 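Calls depend on retest data that are not deposited; infection was ranked per plate without normalising between plates; the unit of the infection score is not given.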 Raw values are not corrected between plates. Unmarked entries are inactive. The record does not give: the amount of reagent, the time to read-out.
predicted target,dsRNA,"infection score, replicate 1","infection score, replicate 2","cell count, replicate 1","cell count, replicate 2"
CG11523,DRSC11669,14.2,16.1,5931,6329
CG11523,DRSC26429,1.21,4.17,6283,6192
Cand1 (Cullin-associated and neddylation-dissociated 1),DRSC01992,2.37,5.16,7081,6318
CG7101,DRSC20023,6.55,15.1,2979,5777
CG7101,DRSC22845,4.01,13.1,5557,845
CG31798,DRSC01702,1.85,5.26,5990,5680
CG31798,DRSC27963,17.7,2.62,5973,6561
CG7889,DRSC20066,0.8,2.67,6356,6804
CG7889,DRSC26654,6.37,8.01,5938,5795
CG9825,DRSC04569,8.65,9.92,6831,6555
CG9825,DRSC25634,14.9,22,4813,5140
Epg5 (ectopic P-granules autophagy protein 5),DRSC14778,3.2,1,5944,5598
CG5969,DRSC11789,13.7,16.6,6006,5171
CG5969,DRSC29030,10.4,,2792,263
Mondo,DRSC02668,16.4,6.35,2394,2046
Mondo,DRSC22006,3.58,21,5923,6175
Mondo,DRSC26287,9,3.34,5825,4998
"Grx1t (Glutaredoxin 1, testis-specific)",DRSC04530,5.25,3.82,6533,6469
"Grx1t (Glutaredoxin 1, testis-specific)",DRSC28633,9.9,7.7,2313,1895
cato (cousin of atonal),DRSC07589,9.91,16.2,5822,2046
CG33490,DRSC10587,12.9,16.9,5334,4236
CG4161,DRSC01930,2.27,6.61,6925,6676
CG4161,DRSC26020,9.53,2.46,6242,6293
